A mixed list of measured activities; the numbers were collected in NIAID ChemDB.

All rows: target-level tests; species: HIV-1; target: Protease

ICn: concentration for n% inhibition. Blank or dashed fields: not listed here. Rows are shuffled and stem from different studies.

SMILES | method | setting | read-out | changes | strain | value
CCc1ccccc1C[C@H](NC(=O)OC(C)(C)C)[C@H](O)CNC[C@@H](O)[C@H](Cc1ccccc1)NC(=O)OC(C)(C)C | HPLC | pH 5.5 | IC50 | - | - | <10 µM
O=C(Nc1ccc2c(O)c(N=Nc3ccccc3)c(S(=O)(=O)O)cc2c1)Nc1ccc2c(O)c(N=Nc3ccc(C(=O)O)cc3)c(S(=O)(=O)O)cc2c1 | HPLC | - | IC50 | - | - | 4 µM
CN1[C@H](COc2ccccc2)[C@H](O)[C@@H](O)[C@@H](COc2ccccc2)N(C)S1(=O)=O | - | - | Ki | PR-I84V | - | 20 µM
CCC(C)[C@H](NC(=O)CCCCCCCCCCCCCCC(=O)N[C@@H](CC(N)=O)C(=O)N[C@@H](Cc1ccc([N+](=O)[O-])cc1)C(=O)O)C(=O)N[C@@H](Cc1ccccc1)C(N)=O | HPLC | - | IC50 | - | - | 0.868 µM
CNC(=O)[C@@H](NC(=O)[C@H](OCc1ccccc1)[C@H](O)[C@@H](O)[C@@H](OCc1ccccc1)C(=O)N[C@H]1c2ccccc2C[C@H]1O)C(C)C | - | - | Ki | PR-G48V L90M | - | 0.0015 µM
CSC[C@H](NC(=O)COc1cccc2ccccc12)C(=O)N[C@@H](Cc1ccccc1)[C@H](O)C(=O)N1CSC[C@H]1C(=O)NC(C)(C)C | HPLC | - | IC50 | - | - | 0.012 µM
CC(C)=CCc1c(CO)cc2oc3cc(O)c(O)c(CC=C(C)C)c3c(=O)c2c1O | HPLC | - | Ki | - | - | 7.8 ± 0.4 µM
CC(C)(C)OC(=O)N[C@@H](Cc1ccccc1)[C@H](O)CNC[C@@H](O)[C@H](Cc1ccc(OCCO)cc1)NC(=O)OC(C)(C)C | HPLC | pH 5.5 | IC50 | - | - | <10 µM
CC(C)(C)NC(=O)[C@@H]1C[C@@H]2CCCC[C@@H]2CN1C[C@@H](O)[C@H](Cc1ccccc1)NC(=O)[C@@H](NC(=O)c1ccccc1)C(C)(C)S(C)(=O)=O | - | - | IC50 | - | - | 0.0019 µM
CC(C)[C@H](NC(=O)N(C)Cc1ccccn1)C(=O)N[C@@H](Cc1ccccc1)[C@H](O)[C@H](O)[C@H](Cc1ccccc1)NC(=O)[C@@H](NC(=O)N(C)Cc1ccccn1)C(C)C | fluorescence | - | Ki | - | - | 0.000084 µM
NC(=O)C[C@H](NC(=O)CCCCCCCCCCCCCCC(=O)N[C@@H](CC1CCCCC1)C(=O)N[C@@H](Cc1ccccc1)C(N)=O)C(=O)N[C@@H](Cc1ccccc1)C(=O)O | HPLC | - | IC50 | - | - | >1 µM
O=C1c2ccccc2C(=O)c2ccccc21 | fluorescence | - | IC50 | - | - | 106 µM
Cc1cccc(C)c1OCC(=O)N[C@@H](Cc1ccccc1)[C@@H](O)C[C@H](Cc1ccccc1)NC(=O)[C@@H]1CN(c2ccccc2)C(=O)O1 | FRET | - | Ki | - | WT | 0.00728 µM
CC(C)C[C@H](NC(=O)[C@@H](NC(=O)CCCCCCCCCCCCCCC(=O)N[C@@H](CC(N)=O)C(=O)N[C@@H](Cc1ccccc1)C(=O)O)C(C)O)C(=O)N[C@@H](Cc1ccccc1)C(N)=O | HPLC | - | IC50 | - | - | 5.4 µM
O=C1N[C@H](Cc2ccccc2)[C@H](O)CN[C@H]1Cc1ccccc1 | HPLC | - | Ki | - | - | ≤0.01 µM
CCC(C)[C@H](NC(=O)CCCCCCCCCCCCCCC(=O)N[C@@H](Cc1ccc(N)cc1)C(=O)N[C@@H](Cc1ccccc1)C(=O)O)C(=O)N[C@@H](Cc1ccccc1)C(N)=O | HPLC | - | IC50 | - | - | 1.2 µM
CC(C)(C)OC(=O)N[C@@H](Cc1ccccc1)[C@H](O)CNC[C@@H](O)[C@H](Cc1ccc(OCC(=O)N2CCOCC2)cc1)NC(=O)OC(C)(C)C | HPLC | - | IC50 | PR-A71T | - | 0.059 µM
CC(C)(C)OC(=O)N[C@@H](Cc1ccccc1)[C@H](O)CNC[C@@H](O)[C@H](Cc1ccccc1)NC(=O)/C(=N/O)C(C)(C)C | HPLC | pH 5.5 | IC50 | - | - | <10 µM
CC(C)(C)CC(=O)N[C@@H](Cc1ccccc1)[C@H](O)CN1C[C@H]2CCCC[C@H]2C[C@H]1C(=O)NC(C)(C)C | - | - | IC50 | - | - | 0.7 µM
Nc1c(N=Nc2ccc([N+](=O)[O-])cc2)c(S(=O)(=O)O)cc2cc(S(=O)(=O)O)c(N=Nc3ccccc3)c(O)c12 | HPLC | - | IC50 | - | - | 7 µM
CC(C)(C)OC(=O)N[C@@H](Cc1ccccc1)[C@H](O)CNC[C@@H](O)[C@H](Cc1ccccc1)NC(=O)OC(C)(C)CCCNCc1ccccc1 | HPLC | pH 5.5 | IC50 | - | - | 10 µM
CNC(=O)CN1[C@H](COc2ccccc2)[C@H](O)[C@@H](O)[C@@H](COc2ccccc2)N(CC(=O)NC)S1(=O)=O | - | - | Ki | PR-I84V | - | 83 µM
CC(C)CN(C[C@@H](O)[C@H](Cc1ccccc1)NC(=O)[C@H](CC(N)=O)NC(=O)c1ccc2ccccc2n1)C(=O)NC(C)(C)C | HPLC | - | IC50 | - | - | 0.004 µM
O=C1c2ccccc2C(=O)c2c(O)ccc(O)c21 | fluorescence | - | IC50 | - | - | 35 µM
CC(C)[C@H](NC(=O)N(C)Cc1ccccn1)C(=O)N[C@@H](Cc1ccccc1)[C@H](O)[C@@H](O)[C@H](Cc1ccccc1)NC(=O)[C@@H](NC(=O)N(C)Cc1ccccn1)C(C)C | fluorescence | - | Ki | - | - | 0.000077 µM
CCC(=O)N[C@H](C(=O)N[C@@H](Cc1ccccc1)[C@H](O)CNC[C@@H](O)[C@H](Cc1ccccc1)NC(=O)OC(C)(C)C)C(C)C | HPLC | pH 5.5 | IC50 | - | - | <10 µM
Nc1ccc(N)c2c1C(=O)c1c(N)ccc(N)c1C2=O | fluorescence | - | IC50 | - | - | 16 µM
CC(C)(C)OC(=O)N[C@@H](Cc1ccccc1)[C@H](O)CNC[C@@H](O)[C@H](Cc1ccccc1)NC(=O)OCc1ccccc1 | HPLC | pH 5.5 | IC50 | - | - | <10 µM
CC[C@H](C)[C@H](NC(=O)[C@@H]1CCCN1C(=O)[C@@H](O)[C@H](Cc1ccccc1)NC(=O)[C@H](CC(N)=O)NC(=O)CCc1ccccc1)C(=O)N[C@H](C(N)=O)C(C)C | HPLC | - | IC50 | - | - | 0.1 µM
CC(C)(C)OC(=O)N[C@@H](Cc1ccccc1)[C@@H](O)[C@H](O)[C@H](Cc1ccccc1)NC(=O)OC(C)(C)C | absorbance | - | Ki | - | - | 0.038 µM
C[C@@]12OC(=O)N[C@]1(C)c1ccccc1[C@@H]2C1=CN[C@@](Cc2ccccc2)(C[C@H](O)[C@H](Cc2ccccc2)NC(O)O[C@H]2CCOC2)C1=O | - | - | IC50 | - | - | 0.0004 µM
O=S(=O)(O)c1cc(O)c2c(O)c(N=Nc3ccccc3S(=O)(=O)O)c(S(=O)(=O)O)cc2c1 | HPLC | - | IC50 | - | - | 110 µM
CC(C)(C)OC(=O)N[C@@H](Cc1ccccc1)[C@H](O)CNC[C@@H](O)[C@H](Cc1ccccc1)NC(=O)C(C)(O)C(C)(C)C | substrate cleavage | - | Ki | - | - | 0.018 µM
Nc1ccc2c(c1N)C(=O)c1ccccc1C2=O | fluorescence | - | IC50 | - | - | 100 µM
Cc1ccc(Nc2cccc3c2C(=O)c2cccc(Nc4ccc(C)cc4S(=O)(=O)O)c2C3=O)c(S(=O)(=O)O)c1 | HPLC | - | IC50 | - | - | 20 µM
O=C(Cc1ccc2c(c1)OCO2)N[C@@H](Cc1ccccc1)[C@@H](O)C[C@H](Cc1ccccc1)NC(=O)[C@@H]1CN(c2ccccc2)C(=O)O1 | FRET | - | Ki | - | - | 0.657 µM
CCC(C)[C@H](NC(=O)CCCCCCCCCCCCCCC(=O)N[C@@H](CC(N)=O)C(=O)N[C@@H](Cc1ccccc1)C(=O)O)C(=O)N[C@@H](Cc1cc(I)c(O)c(I)c1)C(N)=O | HPLC | - | IC50 | - | - | 0.74 µM
O=C1c2ccccc2C(=O)c2c1ccc(O)c2O | fluorescence | - | Ki | - | - | 12.3 µM
CCC(C)(C)NC(=O)[C@@H]1CCCN1C(=O)[C@@H](O)[C@H](Cc1ccccc1)NC(=O)[C@H](CC(N)=O)NC(=O)OCc1ccccc1 | HPLC | - | IC50 | - | - | 0.572 µM
COC(=O)c1ccc(CN2[C@H](COc3ccccc3)[C@H](O)[C@@H](O)[C@@H](COc3ccccc3)N(Cc3ccc(C(=O)OC)cc3)S2(=O)=O)cc1 | - | - | Ki | PR-G48V L90M | - | 0.095 µM
CC(C)[C@H](NC(=O)N(C)Cc1ccccn1)C(=O)N[C@@H](Cc1ccccc1)[C@H](O)[C@H](O)[C@H](Cc1ccccc1)NC(=O)[C@@H](NC(=O)N(C)Cc1ccccn1)C(C)C | HPLC | - | IC50 | PR-A71T | - | 0.0014 µM
CC(C)(C)NC(=O)[C@@H]1C[C@@H]2CCCC[C@@H]2CN1C[C@@H](O)[C@H](Cc1ccccc1)NC(=O)[C@@H](N)C(C)(C)S(C)(=O)=O | - | - | IC50 | - | - | 0.0086 µM
Nc1cc(N)c(N=Nc2cccc3c(S(=O)(=O)O)cccc23)cc1N=Nc1cc([N+](=O)[O-])ccc1O | HPLC | - | IC50 | - | - | 4 µM
COC(=O)N[C@H](C(=O)N[C@@H](Cc1ccccc1)[C@@H](O)CN(Cc1ccc(-c2ccccn2)cc1)NC(=O)[C@@H](NC(=O)OC)C(C)(C)C)C(C)(C)C | substrate cleavage / FRET | - | Ki | Q7K | - | 0.000046 µM
O=S(=O)(O)c1cc(Br)ccc1N=Nc1c(S(=O)(=O)O)cc2cc(S(=O)(=O)O)c(N=Nc3ccc(Br)cc3S(=O)(=O)O)c(O)c2c1O | HPLC | - | IC50 | - | - | 4 µM
CC(C)(C)NC(=O)[C@H]1N(C(=O)[C@@H](O)[C@H](Cc2ccccc2)NC(=O)[C@H](CC(N)=O)NC(=O)COc2ccc(-c3ccccc3)cc2)CSC1(C)C | HPLC | - | IC50 | - | - | 0.0022 µM
O=C(O)c1cc(N=Nc2ccc(N=Nc3ccc(S(=O)(=O)O)cc3)cc2)ccc1O | HPLC | - | IC50 | - | - | 34 µM
CC(C)(C)OC(=O)N[C@@H](COc1ccccc1)[C@@H](O)[C@H](O)[C@H](COc1ccccc1)NC(=O)OC(C)(C)C | absorbance | - | Ki | - | - | 0.3 µM
O=S(=O)(O)c1cc(O)c(N=Nc2ccc3c(S(=O)(=O)O)cccc3c2O)cc1Cl | HPLC | - | IC50 | - | - | 68 µM
O=C1c2ccccc2C(=O)c2c1cc(S(=O)(=O)O)c(O)c2O | fluorescence | - | IC50 | - | - | 8 µM